Compound potency records, mixed from different reports. Data source: NIAID ChemDB in PubChem.

Shared fields: tests in culture; agent: Varicella zoster virus; cell line: HEL; read-out: EC50

ECn is the concentration giving n% inhibition of infection, replication or growth.

O=c1[nH]c(=O)n([C@H]2C[C@H](O)[C@@H](CO)O2)cc1/C=C/Br ; strain: (TK-)07/1 ; method: plaque count ; value: >60 µM
O=c1[nH]c(=O)n([C@@H]2O[C@H](CO)[C@@H](O)[C@@H]2O)cc1/C=C/Br ; strain: YS-V10 H12 ; method: plaque count ; value: 0.0005 µg/mL
CC1(C)[C@@H](CCO)C[C@H]1n1cnc2c(=O)[nH]c(N)nc21 ; strain: (TK-)07/1 ; method: plaque count ; value: >50 µg/mL
Nc1nc2c(ncn2[C@H]2CCC[C@H]2CO)c(=O)[nH]1 ; strain: 07/1 (TK-) ; method: plaque count ; value: >50 µg/mL
CC1(C)[C@@H](CCO)C[C@H]1n1nnc2c(=O)[nH]c(N)nc21 ; strain: (TK-)07/1 ; method: plaque count ; value: >50 µg/mL
Nc1ncnc2nn(C[C@@H](CF)OCP(=O)(O)O)nc12 ; strain: YS (TK+) ; method: cytopathic effect ; value: >10 µg/mL
Cc1cc([C@H]2C[C@H](O)[C@@H](CO)O2)c(F)cc1Cl ; strain: (TK+)/OKA ; method: plaque count ; value: >200 µM
Nc1nc2c(nnn2CCOCP(=O)(O)O)c(=O)[nH]1 ; strain: YS/R (TK-) ; method: cytopathic effect ; value: 0.4 µg/mL
CC1(C)[C@@H](CO)CC[C@@]1(C)Cn1nnc2c(=O)[nH]cnc21 ; strain: YS ; method: cytopathic effect ; value: >50 µg/mL
COc1nc(=O)n([C@H]2C[C@H](O)[C@@H](CO)O2)cc1/C=C/Cl ; strain: OKA ; method: plaque count ; value: 4 µg/mL
C[C@H](Cn1nc2ncnc(N)c2n1)OCP(=O)(O)O ; strain: YS (TK+) ; method: cytopathic effect ; value: 5 µg/mL
CC1(C)[C@@H](CCO)C[C@H]1n1nnc2c(Cl)nc(N)nc21 ; strain: TK+/YS ; method: plaque count ; value: >20 µg/mL
O=c1[nH]c(=O)n(C2C[C@H](CO)[C@@H](CO)C2)cc1I ; strain: YS/R (TK-) ; value: >100 µg/mL
CCCCCCCCCCc1cc2cn([C@H]3C[C@H](O)[C@@H](CO)O3)c(=O)nc2n1CC ; strain: 07/1 (TK-) ; method: plaque count ; value: >5 µM
O=C(O)CP(=O)(O)O ; strain: Oka PMEA-resistant ; method: cytopathic effect ; value: 153.5 µM
CC1(C)[C@@H](CO)CC[C@@]1(C)Cn1cnc2c(N)ncnc21 ; strain: YS/R (TK-) ; method: cytopathic effect ; value: >50 µg/mL
OC[C@H]1O[C@@H](c2cc(F)c(F)cc2F)C[C@@H]1O ; strain: (TK-)07/1 ; method: plaque count ; value: >200 µM
CC1(C)[C@@H](CO)CC[C@@]1(C)Cn1nnc2c(Cl)ncnc21 ; strain: 07/1 (TK-) ; method: cytopathic effect ; value: >50 µg/mL
OC[C@H]1O[C@@H](c2cc(I)c(F)cc2F)C[C@@H]1O ; strain: TK+/YS ; method: plaque count ; value: >200 µM
CC1(C)[C@@H](CO)CC[C@@]1(C)Cn1cc(I)c(=O)[nH]c1=O ; strain: OKA ; method: cytopathic effect ; value: >50 µg/mL
O=c1ccn([C@@H]2O[C@H](/C=C/C=C(Br)Br)[C@@H](O)[C@H]2O)c(=O)[nH]1 ; strain: YS ; value: >120 µM
OC[C@H]1O[C@H](c2cc(Br)c(F)cc2F)C[C@@H]1O ; strain: (TK+)/OKA ; method: plaque count ; value: >200 µM
CCCCCCCCc1cc2cn([C@H]3C[C@H](O)[C@@H](CO)O3)c(=O)nc2[nH]1 ; strain: YS/R (TK-) ; method: plaque count ; value: >20 µM
Nc1nc2c(ncn2COC(CO)CO)c(=O)[nH]1 ; strain: Oka PMEDAP-resistant ; method: cytopathic effect ; value: 0.17 µM
O=c1[nH]cnc2c1ncn2C1C[C@H](CO)[C@@H](CO)C1 ; strain: YS ; value: >100 µg/mL
Nc1ncc2ncn(C[C@H]3CCC[C@H]3CO)c2n1 ; strain: YS (TK+) ; method: plaque count ; value: >20 µg/mL
CCCCCCCCCCc1cc2cn([C@H]3C[C@H](O)[C@@H](CO)O3)c(=O)nc2n1C ; strain: YS/R (TK-) ; method: plaque count ; value: >20 µM
Nc1nc(=O)n([C@H]2C[C@H](O)[C@@H](CO)O2)cc1/C=C\Cl ; strain: OKA ; method: plaque count ; value: 0.2 µg/mL
O=c1[nH]c(=O)n([C@H]2C[C@H](O)[C@@H](CO)O2)cc1I ; strain: OKA-H12 ; method: plaque count ; value: 0.4 µg/mL
N#Cc1cc([C@H]2C[C@H](O)[C@@H](CO)O2)c(F)cc1F ; strain: TK+/YS ; method: plaque count ; value: >200 µM
CC1(C)[C@@H](CCO)C[C@H]1n1cnc2c(N)ncnc21 ; strain: (TK-)07/1 ; method: plaque count ; value: >20 µg/mL
Nc1ncnc2nn(C[C@@H](CO)OCP(=O)(O)O)nc12 ; strain: YS/R (TK-) ; method: cytopathic effect ; value: >100 µg/mL
Nc1nc(N)c2ncn(CCOCP(=O)(O)O)c2n1 ; strain: Oka penciclovir-resistant/B ; method: cytopathic effect ; value: 11.3 µM
COc1cc(F)c([C@H]2C[C@H](O)[C@@H](CO)O2)cc1[N+](=O)[O-] ; strain: (TK+)/OKA ; method: plaque count ; value: >200 µM
Nc1nc(N)c2ncn(C[C@H]3CCC[C@H]3CO)c2n1 ; strain: 07/1 (TK-) ; method: plaque count ; value: >50 µg/mL
Nc1nc2c(ncn2CCC(CO)CO)c(=O)[nH]1 ; strain: Oka PFA-resistant/A ; method: cytopathic effect ; value: 6.6 µM
CCCCCCCCCCCCc1cc2cn([C@H]3C[C@H](O)[C@@H](CO)O3)c(=O)nc2o1 ; strain: 07/1 (TK-) ; method: plaque count ; value: >20 µM
OC[C@H]1O[C@H](c2ccc(F)cc2F)C[C@@H]1O ; strain: (TK+)/OKA ; method: plaque count ; value: >200 µM
CC(C)CS[C@@H]1C=C[C@H](n2cnc3c(N)ncnc32)C1 ; strain: YS ; method: cytopathic effect ; value: >20 µg/mL
Cc1cc([C@@H]2C[C@H](O)[C@@H](CO)O2)c(Cl)cc1F ; strain: TK+/YS ; method: plaque count ; value: >200 µM
O=c1[nH]c(=O)n([C@@H]2C[C@H](CO)C[C@H]2CO)cc1I ; strain: YS ; value: >100 µg/mL

Repeating the first 6 entries:

O=c1[nH]c(=O)n([C@H]2C[C@H](O)[C@@H](CO)O2)cc1/C=C/Br ; strain: (TK-)07/1 ; method: plaque count ; value: >60 µM
O=c1[nH]c(=O)n([C@@H]2O[C@H](CO)[C@@H](O)[C@@H]2O)cc1/C=C/Br ; strain: YS-V10 H12 ; method: plaque count ; value: 0.0005 µg/mL
CC1(C)[C@@H](CCO)C[C@H]1n1cnc2c(=O)[nH]c(N)nc21 ; strain: (TK-)07/1 ; method: plaque count ; value: >50 µg/mL
Nc1nc2c(ncn2[C@H]2CCC[C@H]2CO)c(=O)[nH]1 ; strain: 07/1 (TK-) ; method: plaque count ; value: >50 µg/mL
CC1(C)[C@@H](CCO)C[C@H]1n1nnc2c(=O)[nH]c(N)nc21 ; strain: (TK-)07/1 ; method: plaque count ; value: >50 µg/mL
Nc1ncnc2nn(C[C@@H](CF)OCP(=O)(O)O)nc12 ; strain: YS (TK+) ; method: cytopathic effect ; value: >10 µg/mL

Lines come from different laboratories, so protocols vary.